Drawing on patent US9308215B2, “Avermectins and milbemycins as anti-mycobacterial agents” (priority 2013, dated 2016), this text covers Toxicity for two molecules.

Like-named read-outs stand apart in the source and are kept apart here.

In this series the test system is Mycobacterium tuberculosis (H37Rv). The note with it: Acute (SCID).

Consider `CO[C@H]1C[C@H](O[C@@H]2/C(C)=C/C[C@@H]3C[C@@H](C[C@]4(CC[C@H](C)[C@@H](C5CCCCC5)O4)O3)OC(=O)[C@@H]3C=C(C)/C(=N/O)[C@H]4OC/C(=C\C=C\[C@@H]2C)[C@]43O)O[C@@H](C)[C@@H]1O` [Selamectin], for which the Toxicity result was “None” (10 mg/kg bw PO, sesame oil); “None” (50 mg/kg bw PO, sesame oil); “Low” (100 mg/kg bw PO, sesame oil); “Low/moderate” (200 mg/kg bw PO, sesame oil).

On to `CO[C@H]1/C=C/O[C@@]2(C)Oc3c(C)c(O)c4c(O)c(c(/C=N/N5CCN(C)CC5)c(O)c4c3C2=O)NC(=O)/C(C)=C\C=C\[C@H](C)[C@H](O)[C@@H](C)[C@@H](O)[C@@H](C)[C@H](OC(C)=O)[C@@H]1C` [Rifampin], for which the Toxicity result is on record as “None” (1 mg/kg bw PO, 5% DMSO) and “None” (10 mg/kg bw PO, 5% DMSO).
